Reference: paper PMC4450067, “Viral and Cellular Proteins Containing FGDF Motifs Bind G3BP to Block Stress Granule Formation” (PLoS Pathogens, 2015)

Biological target: G3BP-NTF2 (purified NTF2-like domain of human G3BP-1) (human, UniProt Q13283 1-139)
Test: ITC
Conditions: both partners purified

B1: nsP3-25 (peptide spanning residues 449-473 of SFV nsP3) (peptide)
peptide: LTFGDFDEHEVDALASGITFGDFDD
notes: source: dissolved and dialyzed in ITC buffer
Kd: 6.7 µM
dH: -12.8 ± 0.1 kcal/mol
stoichiometry N: 2.4 ± 0.1
